Anti-infective test results gathered from many reports (values: NIAID ChemDB through PubChem).

Shared fields: cytotoxicity tests; endpoint: CC50

Neighbouring rows are from separate reports.

| structure | cell line | read by | result |
|---|---|---|---|
| Cc1cccc(C)c1C(=O)N1CCC(N2CC[C@H](N(Cc3ccccc3)C(=O)C3CC3)C2)CC1 | MIP34.10 |  | 0.008 µM |
| O=c1[nH]ncc(NN/C=C2/C=NC3C=CC=CC23)c1Cl | MDM |  | >100 µM |
| O=C(Oc1cc(Cl)ccc1C(=O)Nc1ccc(Cl)c(Cl)c1)c1cnccn1 | HepG2 cells | tetrazolium | 3.16 µM |
| CCOC(=O)CCCCCOc1cccc(CN(C(=O)c2ccc(-c3cccc(CC(=O)O)c3)cc2)C(C)C)c1 | HEK 293 |  | >20 µM |
| Nc1nc(NCC2CC2)c2ncn(/C=C3/C[C@@H]3CO)c2n1 | BSCL-1 |  | >175 µM |
| COc1cc(-c2nnnn2S(=O)(=O)c2ccc(Br)cc2)ccc1OCC(O)(Cn1cncn1)c1ccc(F)cc1F | CHO-K1 | MTT | 38.12 µg/mL |
| Nc1ccn([C@@H]2CS[C@H](CO)O2)c(=O)n1 | C8166 | MTT | >200 µM |
| CCOC(=O)CCCCCOc1cccc(CN(C(=O)c2ccc(-c3cc(OC)cc(OC)c3)cc2)C(C)C)c1 | BJ |  | >20 µM |
| C[C@H](Cc1ccc2oc(=O)oc2c1)[C@@H](C)Cc1ccc2oc(=O)oc2c1 | COS |  | 9.84 µM |
| Nc1nc(OCC2CC2)c2ncn(/C=C3/C[C@@H]3CO)c2n1 | BSCL-1 |  | 130 µM |
| CC(C)=CCC1C[C@@]2(CC=C(C)C)C(=O)/C(=C(\O)c3ccccc3)C(=O)[C@](CC=C(C)C)(C2=O)C1(C)C | 3T3.T4.CCR5 |  | 1.53 µM |
| O=C(Oc1cc(Br)ccc1C(=O)Nc1ccc(C(F)(F)F)cc1)c1cnccn1 | HepG2 cells | tetrazolium | 8.02 µM |
| Nc1nc(=O)n([C@@H]2O[C@H](CO)[C@@H](O)[C@@H]2F)cc1I | Human lymphoblasts |  | 8.6 µM |
| c1ccc(Nc2cc(Nc3ccccc3)ncn2)cc1 | Vero cell | MTT | <3 µM |
| O=c1[nH]c(=O)n([C@@H]2O[C@H](CO)[C@@H](O)[C@@H]2F)cc1/C=C/Cl | Human lymphoblasts |  | 100 µM |
| CS(=O)(=O)C1(c2noc(C(=O)NC34CC(c5nc6ccc(Cl)cc6s5)(C3)C4)n2)CC1 | Primary human hepatocytes | absorbance | 16.8 µM |
| COc1cc(-c2nnnn2S(=O)(=O)c2ccc(Br)cc2)ccc1OCC(O)(Cn1cncn1)c1ccc(Cl)cc1Cl | CHO-K1 | MTT | 74.12 µg/mL |
| Cc1cc(NCCN2CCOCC2)c2ccc3c(ccc4c(NCCN5CCOCC5)cc(C)nc43)c2n1 | Macrophage line RAW 264.7 | MTT | 0.00612 µM |
| CNc1ncc2ncn([C@@H]3O[C@H](CO)[C@@H](O)[C@H]3F)c2n1 | CEF | MTT | >100 µM |
| CC(=O)N[C@@H](Cc1ccccc1)C(=O)Oc1cc(Cl)ccc1C(=O)Nc1ccc(Cl)c(Cl)c1 | Human PBMCs | MTT | 44 µM |
| CC(=O)NCC(=O)O[C@@H](C[C@@H](C)C1=C2C[C@H](OC(=O)CNC(C)=O)[C@H]3[C@@]4(C)CCC(=O)C(C)(C)[C@@H]4CC[C@]3(C)[C@@]2(C)CC1)[C@@H](OC(=O)CNC(C)=O)C(C)(C)O | HepG2.2.15 |  | 270 µM |
| CCCC(=O)O[C@@]12[C@H](OC(=O)/C=C/c3ccccc3)[C@@H](C)[C@@]3(O)[C@@H](C=C(COC(=O)/C=C/c4ccc5c(c4)OCO5)C[C@]4(O)C(=O)C(C)=C[C@@H]34)[C@@H]1C2(C)C | C8166 | MTT | >200 µM |
| Nc1ncnc2c1ncn2[C@@H]1O[C@H](CO)[C@@H](O)[C@H]1F | CEF | MTT | >100 µM |
| CC[C@H](/C=C/[C@@H](C)[C@H]1CC[C@H]2[C@@H]3CC=C4C[C@@H](O[C@@H]5O[C@H](CO)[C@@H](O)[C@H](O)[C@H]5O)CC[C@]4(C)[C@H]3CC[C@]12C)C(C)C | 1A2 | XTT | >125 µg/mL |
| O=C(Oc1ccc(Cl)cc1C(=O)Nc1ccc(Cl)c(Cl)c1)c1cnccn1 | HepG2 cells | tetrazolium | 4.75 µM |
| Cc1cc(C2CC2)n2nc(S(=O)(=O)Nc3c(C)csc3S(C)=O)nc2n1 | K562 (CRL-1573) | WST | >128 µg/mL |
| CC/C=C\C/C=C\C/C=C\C/C=C\C/C=C\CCCC(=O)O[C@@H]1[C@@H](C)[C@@]2(O)[C@@H](C=C(CO)C[C@]3(O)C(=O)C(C)=C[C@@H]23)[C@@H]2C(C)(C)[C@]12O | C8166 | MTT | 44.8 µM |
| CCc1n[nH]c(=S)n1N | Fibroblast L929 | MTT | >100 µg/mL |
| CCc1cn([C@@H]2O[C@H](CO)[C@@H](O)[C@@H]2F)c(=O)[nH]c1=O | Human lymphoblasts |  | 100 µM |
| N#Cc1c(-c2ccco2)nc(SCC(=O)Nc2nc(-c3ccccc3)cs2)[nH]c1=O | MDM |  | >100 µM |
| C/C=C(\C)C(=O)c1c(OC)c2c(c3c(C)cc(=O)oc13)OC(C)(C)C=C2 | HOG.R5 |  | 16.9 µM |
| CCn1cc(C(=O)O)c(=O)c2ccc(C)nc21 | SK-K |  | 125 µg/mL |
| COc1ccc(C[C@H](N)C(=O)N[C@H]2[C@@H](O)[C@H](n3cnc4c(N(C)C)ncnc43)O[C@@H]2CO)cc1 | K562 (CRL-1573) | WST | 0.28 µg/mL |
| CC(C)N(Cc1cccc(OCCCCCC(=O)OC(=O)O)c1)C(=O)c1ccc(-c2cccc(Cl)c2)cc1 | RAJI |  | >20 µM |
| Nc1ccn(C[C@@H](CO)OCP(=O)(O)O)c(=O)n1 | BSCL-1 |  | >154 µM |
| Cc1ccc(-c2ccccc2)n1NC(=O)c1ccncc1 | Vero cell | MTT | >100 µg/mL |
| COC(=O)C1=C2Nc3ccccc3[C@@]23CCN2[C@H](O)[C@]4(CC5C[C@]67CC(=O)O[C@H]6CCC6NC[C@@]8(c9cccc(OC)c9N(C4)[C@@H]58)[C@@H]67)[C@@H]4OCC[C@]4(C1)[C@H]23 | HL-60 | absorbance | 0.75 µM |
| C[C@H](Cc1ccc(OCCN2CCCCC2)c(OCCN2CCCCC2)c1)[C@@H](C)Cc1ccc(OCCN2CCCCC2)c(OCCN2CCCCC2)c1 | COS |  | 3.83 µM |
| CC(C)N(Cc1cccc(OCCCCCC(=O)OC(=O)O)c1)C(=O)c1ccc(-c2ccsc2)cc1 | RAJI |  | >20 µM |
| CCN(CC)CCCC(C)Nc1ccnc2cc(Cl)ccc12 | NFF | sulforhodamine | 24.1 µM |
| CCOC(=O)CCCCCOc1cccc(CN(C(=O)c2ccc(-c3cc4ccccc4n3S(=O)(=O)c3ccccc3)cc2)C(C)C)c1 | BJ |  | >20 µM |
| Cc1c2ccnc(Cl)c2cc2c3cn(C)ccc-3nc12 | Macrophages |  | >1 µM |
| COc1nc2c(nc(N)n2[C@@H]2O[C@H](CO)[C@@H](O)[C@H]2F)c(=O)[nH]1 | CEF | MTT | 21 µM |
| C=CCNc1nc(N)nc2c1ncn2/C=C1/C[C@@H]1CO | BSCL-1 |  | >184 µM |
| C=C(C)[C@H](OC(=O)COCC)[C@H](C[C@@H](C)[C@]12CC[C@@]3(C)[C@@]1(C[C@H](OC(=O)COCC)[C@H]1[C@@]4(C)CCC(=O)C(C)(C)[C@@H]4CC[C@@]13C)O2)OC(=O)COCC | HepG2.2.15 |  | >1800 µM |
| CC/C=C\C/C=C\C/C=C\C/C=C\C/C=C\C/C=C\CCC(=O)O[C@@H]1[C@@H](C)[C@@]2(O)[C@@H](C=C(CO)C[C@]3(O)C(=O)C(C)=C[C@@H]23)[C@@H]2C(C)(C)[C@]12OC(=O)CCC | C8166 | MTT | 26.7 µM |
| C/C=C/C=C/C(=O)O[C@@H](C[C@@H](C)C1=C2C[C@H](OC(=O)/C=C/C=C/C)[C@H]3[C@@]4(C)CCC(=O)C(C)(C)[C@@H]4CC[C@]3(C)[C@@]2(C)CC1)[C@@H](OC(=O)/C=C/C=C/C)C(C)(C)O | HepG2.2.15 |  | >900 µM |
| Cc1cc(C2CC2)n2nc(S(=O)(=O)Nc3c(Br)cccc3Br)nc2n1 | HEPG2 (HB-8065) | WST | >128 µg/mL |
| CC/C=C\C/C=C\C/C=C\C/C=C\C/C=C\CCCC(=O)OCC1=C[C@H]2[C@@H]3C(C)(C)[C@]3(OC(=O)CCC/C=C\C/C=C\C/C=C\C/C=C\C/C=C\CC)[C@H](OC(=O)CCC/C=C\C/C=C\C/C=C\C/C=C\C/C=C\CC)[C@@H](C)[C@]2(O)[C@@H]2C=C(C)C(=O)[C@@]2(O)C1 | C8166 | MTT | 130 µM |
| COc1cccc(-c2ccc(C(=O)N(Cc3cccc(OCCCCCC(=O)OC(=O)O)c3)C(C)C)cc2)c1 | RAJI |  | >20 µM |
| CCCSc1nc(N)nc2c1ncn2/C=C1/C[C@@H]1CO | MEF |  | >343 µM |
| C[C@H](C[C@H](OC(=O)C1CCCC1)[C@@H](OC(=O)C1CCCC1)C(C)(C)O)C1=C2C[C@H](OC(=O)C3CCCC3)[C@H]3[C@@]4(C)CCC(=O)C(C)(C)[C@@H]4CC[C@]3(C)[C@@]2(C)CC1 | HepG2.2.15 |  | >1100 µM |
| O=C(CN(c1cc(C(F)(F)F)ccc1Cl)S(=O)(=O)c1ccccc1)NCc1ccncc1 | HepDE19 | absorbance | >50 µM |
| COc1ccc2c(c1)C=C1Cn3c-2c(C2CCCCC2)c2ccc(cc23)C(=O)NS(=O)(=O)N(C)CCOCCN(C)C1=O | VERO E6 | resazurin | >50 µM |
| CC1=C[C@H]2c3c(ccc4oc5cc(O)cc(O)c5c(=O)c34)OC(C)(C)[C@H]2CC1 | HOG.R5 |  | 26.6 µM |
| Cc1nc2cc(OC(F)(F)F)ccc2n1-c1ccc(C(=O)NC2CC2)s1 | Kidney epithelial cells | resazurin | >62 µM |
| Nc1nc2c(nc(N)n2[C@@H]2O[C@H](CO)[C@@H](O)[C@H]2F)c(=O)[nH]1 | CEF | MTT | 16 µM |
| C=C(C)[C@H](OC(=O)COC(C)=O)[C@H](C[C@@H](C)[C@]12CC[C@@]3(C)[C@@]1(C[C@H](OC(=O)COC(C)=O)[C@H]1[C@@]4(C)CCC(=O)C(C)(C)[C@@H]4CC[C@@]13C)O2)OC(=O)COC(C)=O | HepG2.2.15 |  | >1600 µM |
| O=C(Nc1ccccc1)c1ccccc1O | HepG2 cells | tetrazolium | 89.8 µM |

6 of the rows above, restated:

structure,cell line,read by,result
N#Cc1c(-c2ccco2)nc(SCC(=O)Nc2nc(-c3ccccc3)cs2)[nH]c1=O,MDM,,>100 µM
COc1nc2c(nc(N)n2[C@@H]2O[C@H](CO)[C@@H](O)[C@H]2F)c(=O)[nH]1,CEF,MTT,21 µM
CC/C=C\C/C=C\C/C=C\C/C=C\C/C=C\C/C=C\CCC(=O)O[C@@H]1[C@@H](C)[C@@]2(O)[C@@H](C=C(CO)C[C@]3(O)C(=O)C(C)=C[C@@H]23)[C@@H]2C(C)(C)[C@]12OC(=O)CCC,C8166,MTT,26.7 µM
O=C(Oc1cc(Br)ccc1C(=O)Nc1ccc(C(F)(F)F)cc1)c1cnccn1,HepG2 cells,tetrazolium,8.02 µM
C/C=C/C=C/C(=O)O[C@@H](C[C@@H](C)C1=C2C[C@H](OC(=O)/C=C/C=C/C)[C@H]3[C@@]4(C)CCC(=O)C(C)(C)[C@@H]4CC[C@]3(C)[C@@]2(C)CC1)[C@@H](OC(=O)/C=C/C=C/C)C(C)(C)O,HepG2.2.15,,>900 µM
Nc1nc(=O)n([C@@H]2O[C@H](CO)[C@@H](O)[C@@H]2F)cc1I,Human lymphoblasts,,8.6 µM

CCn is the concentration with n% toxicity to the cells. Blank or dashed fields: not listed here.